{"source": "patent US20130053277A1", "about": "(priority 2010, published 2013)", "biological_target": "Singapore wild-type M2-MalE chimera (Influenza A virus, UniProt P10920)", "settings": "50 μM IPTG induction, 100 μM rimantadine, FIG. 1"}
{"smiles": "CC(N)C12CC3CC(CC(C3)C1)C2", "note": "(stereo not shown) [rimantadine, Rimantadine]", "values": [{"measurement": "expression of the M2 chimeric protein", "value": "enhanced"}]}
